Tests used:
[1] = ESI-MS collision-induced dissociation of dendrimer/DMPG [1:1]2+ complexes; type: physicochemical; conditions: [1:1]2+ complex, gas phase, center-of-mass collision energy, single collision conditions; average of three measurements
[2] = ESI-MS collision-induced dissociation of dendrimer/DMPC [1:1]2+ complexes; type: physicochemical; conditions: [1:1]2+ complex, gas phase, center-of-mass collision energy, single collision conditions; average of three measurements

Compound	Collision energy for 50% dissociation of the complex (CID50), DMPG/dendrimer [1] [eV]	Collision energy for 50% dissociation of the complex (CID50), DMPC/dendrimer [2] [eV]
NCCCC[C@H](NC(=O)OCc1ccccc1Cl)C(=O)NCCNC(=O)CCN(CCC[C@@H](C(=O)NCCc1cnc[nH]1)N(CCC(=O)NCCNC(=O)[C@H](CCCCN)NC(=O)OCc1ccccc1Cl)CCC(=O)NCCNC(=O)[C@H](CCCCN)NC(=O)OCc1ccccc1Cl)CCC(=O)NCCNC(=O)[C@H](CCCCN)NC(=O)OCc1ccccc1Cl [Dendrimer 3c]	0.54	0.39
CCCCCCCCCCCCNC(=O)[C@H](CCCN(CCC(=O)NCCNC(=O)[C@H](CCCCN)NC(=O)OCc1ccccc1Cl)CCC(=O)NCCNC(=O)[C@H](CCCCN)NC(=O)OCc1ccccc1Cl)N(CCC(=O)NCCNC(=O)[C@H](CCCCN)NC(=O)OCc1ccccc1Cl)CCC(=O)NCCNC(=O)[C@H](CCCCN)NC(=O)OCc1ccccc1Cl [Dendrimer 3d]	0.55	0.37
CCCCCCCCCCCCNC(=O)[C@H](CCCN(CCC(=O)NCCNC(=O)[C@@H](N)CCCCNC(=O)OCc1ccccc1Cl)CCC(=O)NCCNC(=O)[C@@H](N)CCCCNC(=O)OCc1ccccc1Cl)N(CCC(=O)NCCNC(=O)[C@@H](N)CCCCNC(=O)OCc1ccccc1Cl)CCC(=O)NCCNC(=O)[C@@H](N)CCCCNC(=O)OCc1ccccc1Cl [Dendrimer 3h]	0.44	0.33

From PMC6270063, “Novel Antimicrobial Peptide Dendrimers with Amphiphilic Surface and Their Interactions with Phospholipids — Insights from Mass Spectrometry” (Molecules, 2013)
